Measurements as given in the CheMixHub ionic liquid set.

Experiment: xn = mol fraction of the nth substance listed

CCCC[N+]1(C)CCCC1.O=S(=O)(F)[N-]S(=O)(=O)F + CCCC[N+]1(C)CCCC1.O=C1O[B-]2(OC1=O)OC(=O)C(=O)O2
101.3 kPa, x1 = 1
Details	viscosity [mPa·s]
293.15 K	107 ± 21
308.15 K	58 ± 12
323.15 K	35.2 ± 7.1

CCCC[N+]1(C)CCCC1.O=S(=O)(F)[N-]S(=O)(=O)F + O
100 kPa
Details	electrical conductivity [S/m]	viscosity [mPa·s]
288.15 K, x1 = 0.8777	0.569 ± 0.011	–
288.15 K, x1 = 0.9002	0.54 ± 0.011	–
293.15 K, x1 = 0.817	0.744 ± 0.015	–
293.15 K, x1 = 0.9182	–	52.1 ± 1.1
298.15 K, x1 = 0.8556	0.795 ± 0.016	–
303.15 K, x1 = 0.8545	–	32.1 ± 0.66
303.15 K, x1 = 0.9002	0.86 ± 0.017	–
303.15 K, x1 = 0.9283	0.816 ± 0.016	–
308.15 K, x1 = 0.9002	0.983 ± 0.02	–
308.15 K, x1 = 0.9457	–	33.67 ± 0.7
313.15 K, x1 = 0.8556	1.18 ± 0.024	–
313.15 K, x1 = 0.9771	0.987 ± 0.02	–
318.15 K, x1 = 0.8777	1.3 ± 0.026	–
318.15 K, x1 = 0.9283	1.2 ± 0.024	–
318.15 K, x1 = 0.9771	1.11 ± 0.022	–
323.15 K, x1 = 0.8018	–	16.4 ± 0.34
323.15 K, x1 = 0.817	1.56 ± 0.031	–
323.15 K, x1 = 0.8556	1.48 ± 0.03	–
323.15 K, x1 = 0.9002	1.39 ± 0.028	–
323.15 K, x1 = 0.9771	1.25 ± 0.025	–
328.15 K, x1 = 0.817	1.74 ± 0.035	–
328.15 K, x1 = 0.9002	1.55 ± 0.031	–
328.15 K, x1 = 0.9283	1.5 ± 0.03	–
328.15 K, x1 = 0.9727	–	20.46 ± 0.43
333.15 K, x1 = 0.8018	–	13.08 ± 0.27
333.15 K, x1 = 0.8758	–	15 ± 0.31
333.15 K, x1 = 0.8777	1.8 ± 0.036	–
333.15 K, x1 = 0.9457	–	17.24 ± 0.36

CCCC[N+]1(C)CCCC1.O=S(=O)(F)[N-]S(=O)(=O)F + CCC[N+]1(C)CCCCC1.O=S(=O)(F)[N-]S(=O)(=O)F
101.3 kPa, x2 = 0
Details	viscosity [mPa·s]
288.15 K	135 ± 27
298.15 K	86 ± 17
328.15 K	30.4 ± 6.1
343.15 K	20.4 ± 4.1

± gives the uncertainty stated by the source.
